# In the supplement of paper PMC7695840:
# Only a part is listed here, and it is no random draw.
# What was measured:
# [1] = test system: Staphylococcus aureus MW2 delta-mecA (mecA-); assay: normalized GFP fluorescence (growth of mecA- strain) (fraction of control range); higher = more growth of mecA- strain; settings: compound concentration: 150 uM; cefoxitin: subinhibitory; fluorescent label: GFP
# In short: (§1)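 Fluorescence from DsRed (540/590) and GFP (485/520) was recorded after 20 h of static growth at 37 °C and 90% humidity. The wells held a 1:1 mix of pre-induced S. aureus MW2 cells, gene-bearing with DsRed and gene-deleted with GFP, in LB with a daily-set subinhibitory antibiotic dose, dispensed at 5 µL/well onto 150 μM compound (1.5% DMSO) in 1536-well plates, single replicate. Each channel was scaled per plate between single-strain control medians, excluding plates with high untreated ratios and rows with DsRed/GFP >10.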
# [2] = test system: Staphylococcus aureus MW2 (mecA+); assay: normalized DsRed fluorescence (growth of mecA+ strain) (fraction of control range); higher = more growth of mecA+ strain; settings: compound concentration: 150 uM; cefoxitin: subinhibitory; fluorescent label: DsRed
# In short: as §1
smiles,measurement,setting,value
O=P([O-])([O-])F.[Na+].[Na+],normalized GFP fluorescence,[1],0.412
same,normalized DsRed fluorescence,[2],1.11
